In patent US7045152B2, “Treating pulmonary disorders with gaseous agent causing repletion of GSNO” (Duke University, priority 1999, dated 2006):

Tested on: cystic fibrosis
Experiment: Inhaled gas / nebulized treatment of patients with cystic fibrosis (Examples IV, IX, XI, XII)
Type: in vivo, human
Conditions: Example IV
[1] = after the inhaled gas, nebulized solution 100 mM per 3 cc normal saline every 6 hours, maintenance

Substance: thionitrosochloronitrite
- GSNO levels [1]: sustained for four days
- infection (pseudomonas pneumonia) [1]: infection resolves
- GSNO (bronchoalveolar lavage) (person, cystic fibrosis, complete deficiency of GSNO, inhaled 5 parts per million in nitrogen): repletion of GSNO
